# Share of PSTVd loop 6 variants by leaf site

Reference: Wu et al. 2024, doi:10.1371/journal.ppat.1012142.

Region: loop 6 of PSTVd (intermediate strain), upper and lower strand joined, each 5' to 3', the first 5 letters being the upper strand, closing pairs included. Wild type: UGACCGCGAG. Varied positions (N): UNNNCGNNNG.

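A pool of all variants was put on leaves of three Nicotiana benthamiana plants. Progeny were sequenced from the inoculated region (day 5), the margin of the inoculated leaf (day 10) and systemic leaves (day 12).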

Values are reads per thousand in the sample; higher means more abundant, 0 means not found. Each value is the mean of three plants. "Pool" is the share in the plasmid pool used as inoculum, on the same scale. The inoculated region was read from the minus strand, the other sites from the plus strand.

GGACCGGGAG (pool 0.0261) gave inoculated region 0.0120; leaf margin 0; systemic leaves 0.
UACCCGUGCG (pool 0.248) gave inoculated region 0.0532; leaf margin 0.00773; systemic leaves 0.
UACUCGGACG (pool 0.261) gave inoculated region 0.589; leaf margin 0.0500; systemic leaves 0.
UAGACGCUUG (pool 0.209) gave inoculated region 0.119; leaf margin 0.0247; systemic leaves 0.
UAGUCGCCCG (pool 0.327) gave inoculated region 0.0712; leaf margin 0.00920; systemic leaves 0.
UAUGCGCCCG (pool 0.275) gave inoculated region 0.126; leaf margin 0.00773; systemic leaves 0.00684.
UCACCGGGUG (pool 0.209) gave inoculated region 0.0715; leaf margin 0.0155; systemic leaves 0.
UCCACGCACG (pool 0.235) gave inoculated region 0.0772; leaf margin 0; systemic leaves 0.
UCCACGUAAG (pool 0.0915) gave inoculated region 0.0719; leaf margin 0; systemic leaves 0.
UCCUCGGAAG (pool 0.157) gave inoculated region 0.0598; leaf margin 0; systemic leaves 0.
UCCUCGGGCG (pool 0.157) gave inoculated region 0.0471; leaf margin 0.00920; systemic leaves 0.
UCGGCGCGAG (pool 0.366) gave inoculated region 0.210; leaf margin 0.339; systemic leaves 0.0723.
UCGUCGACCG (pool 0.222) gave inoculated region 0.0835; leaf margin 0; systemic leaves 0.
UCUGCGGGCG (pool 0.209) gave inoculated region 0.125; leaf margin 0; systemic leaves 0.
UGAACGGGGG (pool 0.0915) gave inoculated region 0.666; leaf margin 0.0959; systemic leaves 0.0262.
UGCCCGCAUG (pool 0.105) gave inoculated region 0.674; leaf margin 0.0683; systemic leaves 0.
UGGCCGCAAG (pool 0.0915) gave inoculated region 0.649; leaf margin 0.0393; systemic leaves 0.
UGUACCGAGG (pool 0.0131) gave inoculated region 0; leaf margin 0; systemic leaves 0.
UGUCCGAGAG (pool 0.222) gave inoculated region 0.587; leaf margin 0.0774; systemic leaves 0.
UGUUCGUGGG (pool 0.131) gave inoculated region 0.0828; leaf margin 0.00773; systemic leaves 0.
UUACCGGCGG (pool 0.222) gave inoculated region 0.138; leaf margin 0.0339; systemic leaves 0.
UUCCCGCUUG (pool 0.275) gave inoculated region 0.0831; leaf margin 0.00773; systemic leaves 0.
UUGACGUUCG (pool 0.235) gave inoculated region 0.0540; leaf margin 0.0460; systemic leaves 0.
UUGUCGCUAG (pool 0.235) gave inoculated region 0.100; leaf margin 0; systemic leaves 0.
UUUACGGCUG (pool 0.340) gave inoculated region 0.114; leaf margin 0; systemic leaves 0.
UUUGCGAUCG (pool 0.222) gave inoculated region 0.0655; leaf margin 0.00773; systemic leaves 0.
UUUGCGCGAG (pool 0.144) gave inoculated region 0.101; leaf margin 0.0460; systemic leaves 0.245.

3 of these entries, quoted again:

sequence	pool	inoculated region	leaf margin	systemic leaves
UAGUCGCCCG	0.327	0.0712	0.00920	0
UCCUCGGAAG	0.157	0.0598	0	0
UCCUCGGGCG	0.157	0.0471	0.00920	0

Samples held 36,220 to 57,551 reads, so the smallest values rest on one or two reads. For reference, wild type rose from 20.7 per thousand in the pool to 195, 198, 203 (inoculated region), 629, 591, 734 (leaf margin) and 942, 870, 868 (systemic leaves). Sequences that differ at fixed positions probably stem from PCR or sequencing errors, and defective variants can be carried along by functional ones.